Measured values from several laboratories, pooled; numbers as filed in NIAID ChemDB.

Common to all: growth or infection tests; agent: Aspergillus niger

a–b is a range or a potency band. Neighbouring rows are from separate reports. ECn: concentration that inhibits the pathogen or its effect by n%. A number after MIC or MFC names an inhibition level or a share of isolates.

{"SMILES": "O=C1CCC(c2ccccc2)C(=O)N1", "strain": "DSM 1988", "measure": "MIC", "value": ">100 µM"}
{"SMILES": "Nc1c(/C=N/NC(=O)c2ccncc2)cccc1CN1CCCCC1", "strain": "MTCC 8184", "measure": "MIC", "value": "50 µg/mL"}
{"SMILES": "CC1=CC(=O)c2c(O)cccc2C1=O", "strain": "CCAM 080002", "measure": "MIC100", "read by": "broth dilution", "value": "5 µg/mL"}
{"SMILES": "CCCCN(CCCC)Cc1cccc(/C=N/NC(=O)c2ccncc2)c1N", "strain": "MTCC 8184", "measure": "MIC", "value": "12.5 µg/mL"}
{"SMILES": "Cc1ccc(C(C)C)cc1O", "measure": "EC50", "value": "0.6 µg/mL"}
{"SMILES": "CC[C@@H]([C@H](C)O)n1ncn(-c2ccc(N3CCN(c4ccc(OC[C@@H]5CO[C@@](Cn6cncn6)(c6ccc(F)cc6F)C5)cc4)CC3)cc2)c1=O", "measure": "MIC50", "value": "0.25–0.5 µg/mL"}
{"SMILES": "Cc1ccc(N2NOC(=O)C2S(=O)(=O)Nc2ccc(-n3c(-c4c(Cl)cccc4[N+](=O)[O-])nc4ccccc4c3=O)cc2)cc1", "strain": "MTCC 282", "measure": "MIC", "read by": "broth dilution", "value": "1000 µg/mL"}
{"SMILES": "CC1=C(C)C(=O)O[C@@H]([C@H](O)[C@]2(O)CC[C@]3(O)[C@@H]2CC[C@H]2[C@H]3CC=C3C=CCC(=O)[C@@]32C)C1", "measure": "MIC", "value": "300 µg/mL"}
{"SMILES": "Cc1ccc(C(C)C)cc1", "measure": "EC50", "value": "1.2 µg/mL"}
{"SMILES": "Oc1cccc2c(Cl)ccnc12", "strain": "ATCC 1004", "measure": "MIC", "value": "3 µg/mL"}
{"SMILES": "O=C(O)c1ccc[nH]c1=S", "strain": "MTCC 1349", "measure": "MIC", "value": "420 µg/mL"}
{"SMILES": "O=C(NO)c1ccc(NC(=S)N/N=C/c2ccccc2O)cc1", "measure": "MIC", "read by": "agar diffusion", "value": "1.75 µM"}
{"SMILES": "C[C@@H]1[C@H](O)[C@@H](C)/C=C/C=C/CC/C=C/C=C/C=C/C=C/C(O[C@H]2O[C@H](C)[C@@H](O)[C@H](N)[C@@H]2O)CC2O[C@](O)(CC(O)C(O)CCC(O)CC(O)CC(O)CC(=O)O[C@H]1C)CC(O)C2C(=O)O", "strain": "MTCC 282", "measure": "MIC", "read by": "broth dilution", "value": "100 µg/mL"}
{"SMILES": "Oc1c(Br)ccc2cccnc12", "strain": "ATCC 1004", "measure": "MIC", "value": "2 µg/mL"}
{"SMILES": "CCC(C)CC(C)CCCCCCCCC(=O)N[C@H]1C[C@@H](O)[C@H](NCCN)NC(=O)[C@@H]2[C@@H](O)CCN2C(=O)[C@H]([C@H](O)CCN)NC(=O)[C@H]([C@H](O)[C@@H](O)c2ccc(O)cc2)NC(=O)[C@@H]2C[C@@H](O)CN2C(=O)[C@H]([C@@H](C)O)NC1=O", "measure": "MIC90", "value": "0.125–0.25 µg/mL"}
{"SMILES": "C/C(=N\\NC(=S)Nc1ccc(C(=O)O)cc1)c1ccccc1", "measure": "MIC", "read by": "agar diffusion", "value": "3.13 µM"}
{"SMILES": "O=C1CCC(c2ccccc2)C(=O)N1CCCN1CCN(c2ccccn2)CC1", "strain": "DSM 1988", "measure": "MIC", "value": ">100 µM"}
{"SMILES": "O=C/C=C/c1ccccc1", "strain": "NRRL 501", "measure": "MFC", "read by": "broth dilution", "value": "160 µg/mL"}
{"SMILES": "C[C@@H]1[C@H](O)[C@@H](C)/C=C/C=C/CC/C=C/C=C/C=C/C=C/C(O[C@H]2O[C@H](C)[C@@H](O)[C@H](N)[C@@H]2O)CC2O[C@](O)(CC(O)C(O)CCC(O)CC(O)CC(O)CC(=O)O[C@H]1C)CC(O)C2C(=O)O", "strain": "MTCC 282", "measure": "MIC", "read by": "broth dilution", "value": "100 µg/mL"}
{"SMILES": "O=[N+]([O-])c1cccc(COc2cccc3cccnc23)c1", "measure": "MIC", "read by": "broth dilution", "value": "25 µg/mL"}
{"SMILES": "C[C@H]1[C@H](O)[C@@H](C)/C=C/C=C/C=C/C=C/C=C/C=C/C=C/[C@H](O[C@@H]2O[C@H](C)[C@@H](O)[C@H](N)[C@@H]2O)C[C@@H]2O[C@](O)(C[C@@H](O)C[C@@H](O)CC[C@H](O)[C@@H](O)C[C@@H](O)CC(=O)O[C@H]1C)C[C@H](O)[C@H]2C(=O)O", "strain": "ITCC 5405", "measure": "MIC", "read by": "broth dilution", "value": "1.95 µg/mL"}
{"SMILES": "O=[N+]([O-])c1ccc(COc2cccc3cccnc23)cc1", "measure": "MIC", "read by": "broth dilution", "value": ">100 µg/mL"}
{"SMILES": "CC(=O)c1cn(Cc2nnn(Cc3nnc(SC4OC(O)C(O)C(O)C4O)n3-c3ccc(Cl)cc3)n2)c2ccccc12", "measure": "MIC99", "read by": "agar", "value": "100 µg/mL"}
{"SMILES": "O=C(NO)c1ccc(NC(=S)N/N=C/c2ccc(O)cc2)cc1", "measure": "MIC", "read by": "agar diffusion", "value": "1.55 µM"}
{"SMILES": "CN(C/C=C/C#CC(C)(C)C)Cc1cccc2ccccc12", "measure": "MIC100", "read by": "broth dilution / agar", "value": "200 µg/mL"}
{"SMILES": "Nc1c(/C=N/NC(=O)c2ccncc2)cccc1CN1CCCC1", "strain": "MTCC 8184", "measure": "MIC", "value": "25 µg/mL"}
{"SMILES": "C[C@@H]1[C@H](O)[C@@H](C)/C=C/C=C/CC/C=C/C=C/C=C/C=C/C(O[C@H]2O[C@H](C)[C@@H](O)[C@H](N)[C@@H]2O)CC2O[C@](O)(CC(O)C(O)CCC(O)CC(O)CC(O)CC(=O)O[C@H]1C)CC(O)C2C(=O)O", "strain": "MTCC 282", "measure": "MIC", "value": "100 µg/mL"}
{"SMILES": "CN1CCN(Cc2cccc(/C=N/NC(=O)c3ccncc3)c2N)CC1", "strain": "MTCC 8184", "measure": "MIC", "value": "1.56 µg/mL"}
{"SMILES": "Cc1ccc(N2NOC(=O)C2S(=O)(=O)Nc2ccc(-n3c(-c4ccccc4)nc4ccccc4c3=O)cc2)cc1", "strain": "MTCC 282", "measure": "MIC", "read by": "broth dilution", "value": "1000 µg/mL"}
{"SMILES": "COc1ccc(/C=N/NC(=S)Nc2ccc(C(=O)NO)cc2)cc1OC", "measure": "MIC", "read by": "agar diffusion", "value": "1.1 µM"}
{"SMILES": "C[C@@H](c1ncncc1F)[C@](O)(Cn1cncn1)c1ccc(F)cc1F", "measure": "MIC90", "value": "1–2 µg/mL"}
{"SMILES": "Clc1ccc([Se][Se]c2ccc(Cl)cc2)cc1", "measure": "MFC", "read by": "broth dilution", "value": ">64 µg/mL"}
{"SMILES": "Cc1ccc(N2NOC(=O)C2S(=O)(=O)Nc2nc(-c3c(F)cc(Cl)cc3Cl)cs2)cc1", "strain": "MTCC 282", "measure": "MIC", "read by": "broth dilution", "value": "1000 µg/mL"}
{"SMILES": "Cc1cccc(COc2cccc3cccnc23)c1", "measure": "MIC", "read by": "broth dilution", "value": "12.5 µg/mL"}
{"SMILES": "Oc1cccc2ccc(Br)nc12", "strain": "ATCC 1004", "measure": "MIC", "value": ">100 µg/mL"}
{"SMILES": "CCN(CC)Cc1cccc(/C=N/NC(=O)c2ccncc2)c1N", "strain": "MTCC 8184", "measure": "MIC", "value": "12.5 µg/mL"}
{"SMILES": "C=CCc1ccc(O)c(OC)c1", "strain": "IOA-3", "measure": "MIC", "read by": "broth dilution", "value": "160 µg/mL"}
{"SMILES": "CCCCCOc1ccc(-c2ccc(-c3ccc(C(=O)N[C@H]4C[C@@H](O)[C@@H](O)NC(=O)[C@@H]5[C@@H](O)[C@@H](C)CN5C(=O)[C@H]([C@H](C)O)NC(=O)[C@H]([C@H](O)[C@@H](O)c5ccc(O)cc5)NC(=O)[C@@H]5C[C@@H](O)CN5C(=O)[C@H]([C@H](C)O)NC4=O)cc3)cc2)cc1", "measure": "MIC50", "value": "0.015 µg/mL"}
{"SMILES": "Cc1ccc(N2NOC(=O)C2S(=O)(=O)Nc2ccc(-n3c(-c4ccc([N+](=O)[O-])cc4)nc4ccccc4c3=O)cc2)cc1", "strain": "MTCC 282", "measure": "MIC", "read by": "broth dilution", "value": "500 µg/mL"}
{"SMILES": "Nc1c(/C=N/NC(=O)c2ccncc2)cccc1CN1CCOCC1", "strain": "MTCC 8184", "measure": "MIC", "value": "3.12 µg/mL"}
{"SMILES": "C[C@@H]1[C@H](O)[C@@H](C)/C=C/C=C/CC/C=C/C=C/C=C/C=C/C(O[C@H]2O[C@H](C)[C@@H](O)[C@H](N)[C@@H]2O)CC2O[C@](O)(CC(O)C(O)CCC(O)CC(O)CC(O)CC(=O)O[C@H]1C)CC(O)C2C(=O)O", "strain": "ATCC 16888", "measure": "MIC", "read by": "agar", "value": "6.25 µg/mL"}
{"SMILES": "Cc1ccc(N2NOC(=O)C2S(=O)(=O)Nc2nc3ccc(C)cc3s2)cc1", "strain": "MTCC 282", "measure": "MIC", "read by": "broth dilution", "value": "1000 µg/mL"}
{"SMILES": "Brc1ccccc1COc1cccc2cccnc12", "measure": "MIC", "read by": "broth dilution", "value": ">100 µg/mL"}
{"SMILES": "O=C(O)c1ccc(NC(=S)N/N=C/c2ccccc2O)cc1", "measure": "MIC", "read by": "agar diffusion", "value": "2.51 µM"}
{"SMILES": "CC(C)=CCOc1ccc2c(c1C)C(=O)c1ccccc1C2=O", "strain": "Standard strain", "measure": "MIC", "read by": "broth dilution", "value": "62.5 µg/mL"}
{"SMILES": "O=C(NO)c1ccc(NC(=S)N/N=C/c2ccc(Cl)cc2)cc1", "measure": "MIC", "read by": "agar diffusion", "value": "1.67 µM"}
{"SMILES": "Oc1cccc2cc(Cl)cnc12", "strain": "ATCC 1004", "measure": "MIC", "value": "6 µg/mL"}
{"SMILES": "O=C(O)c1ccc(NC(=S)N/N=C/c2cccc([N+](=O)[O-])c2)cc1", "measure": "MIC", "read by": "agar diffusion", "value": "1.47 µM"}
{"SMILES": "C[C@@H]1OC(OC[C@H]2OC(Oc3c(-c4ccc(O)c(O)c4)oc4cc(O)cc(O)c4c3=O)[C@H](O)[C@@H](O)[C@@H]2O)[C@H](O)[C@H](O)[C@H]1O", "measure": "MIC", "value": "80 µg/mL"}
{"SMILES": "O=C1CCC(c2ccccc2)C(=O)N1CCCCN1CCN(c2ccccn2)CC1", "strain": "DSM 1988", "measure": "MIC", "value": ">100 µM"}
{"SMILES": "Oc1cc(Cl)cc2cccnc12", "strain": "ATCC 1004", "measure": "MIC", "value": "<1 µg/mL"}
{"SMILES": "Brc1ccc(COc2cccc3cccnc23)cc1", "measure": "MIC", "read by": "broth dilution", "value": ">100 µg/mL"}
{"SMILES": "COc1cc(O)c2c(=O)c(OC)c(-c3ccc(OC4O[C@H](CO)[C@@H](O)[C@H](O)[C@H]4O)cc3)oc2c1", "measure": "MIC", "value": "160 µg/mL"}
{"SMILES": "Cc1ccc(N2NOC(=O)C2S(=O)(=O)Nc2ccc(-n3c(-c4cccc(Cl)c4)nc4ccccc4c3=O)cc2)cc1", "strain": "MTCC 282", "measure": "MIC", "read by": "broth dilution", "value": "250 µg/mL"}
{"SMILES": "C[C@@H]1[C@H](O)[C@@H](C)/C=C/C=C/CC/C=C/C=C/C=C/C=C/C(O[C@H]2O[C@H](C)[C@@H](O)[C@H](N)[C@@H]2O)CC2O[C@](O)(CC(O)C(O)CCC(O)CC(O)CC(O)CC(=O)O[C@H]1C)CC(O)C2C(=O)O", "strain": "MTCC 282", "measure": "MIC", "read by": "broth dilution", "value": "100 µg/mL"}

For reference, 6 entries again:

{"SMILES": "Cc1ccc(N2NOC(=O)C2S(=O)(=O)Nc2nc3ccc(C)cc3s2)cc1", "strain": "MTCC 282", "measure": "MIC", "read by": "broth dilution", "value": "1000 µg/mL"}
{"SMILES": "O=C(O)c1ccc(NC(=S)N/N=C/c2ccccc2O)cc1", "measure": "MIC", "read by": "agar diffusion", "value": "2.51 µM"}
{"SMILES": "Nc1c(/C=N/NC(=O)c2ccncc2)cccc1CN1CCCCC1", "strain": "MTCC 8184", "measure": "MIC", "value": "50 µg/mL"}
{"SMILES": "COc1ccc(/C=N/NC(=S)Nc2ccc(C(=O)NO)cc2)cc1OC", "measure": "MIC", "read by": "agar diffusion", "value": "1.1 µM"}
{"SMILES": "Cc1cccc(COc2cccc3cccnc23)c1", "measure": "MIC", "read by": "broth dilution", "value": "12.5 µg/mL"}
{"SMILES": "CC1=CC(=O)c2c(O)cccc2C1=O", "strain": "CCAM 080002", "measure": "MIC100", "read by": "broth dilution", "value": "5 µg/mL"}